Patent publication US11439622B2 (OXFORD UNIVERSITY INNOVATION LIMITED, priority 2015, dated 2022)
Structures were worked out from names or drawings and are uncertain.

The chains behind the UniProt entries cited, without tags or fusion partners. Residues count along the entry.
UniProt C7C422, 29-270 limits assumed: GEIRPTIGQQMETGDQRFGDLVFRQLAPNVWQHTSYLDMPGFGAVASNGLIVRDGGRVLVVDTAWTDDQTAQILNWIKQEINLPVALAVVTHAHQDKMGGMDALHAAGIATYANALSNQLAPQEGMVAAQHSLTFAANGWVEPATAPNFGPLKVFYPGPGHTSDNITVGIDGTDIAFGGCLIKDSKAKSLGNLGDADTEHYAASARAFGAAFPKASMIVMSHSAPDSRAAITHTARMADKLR
UniProt P52699, 19-246 limits assumed: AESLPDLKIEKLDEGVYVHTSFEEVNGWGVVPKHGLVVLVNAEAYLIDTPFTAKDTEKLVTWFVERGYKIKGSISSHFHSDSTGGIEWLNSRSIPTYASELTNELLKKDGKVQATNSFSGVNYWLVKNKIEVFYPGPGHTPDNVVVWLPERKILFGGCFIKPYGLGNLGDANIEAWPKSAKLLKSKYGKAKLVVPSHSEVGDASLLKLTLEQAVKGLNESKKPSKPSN

Columns and labels:
Assay type in all cases: biochemical
[1] = target: VIM-2 (Veronese metallo-β-lactamase-2) (Escherichia coli, UniProt Q5U7L7); experiment: Enzyme inhibition assay, VIM-2
Experimental: (§1) The biological activity of the compounds of the present invention was tested using standard assay protocols.^7 The following representative enzymes NDM-1 (New Delhi metallo-β-lactamase-1), IMP-1 (Imipenemase-1) and VIM-2 (Veronese metallo-β-lactamase-2) were selected from different clinically relevant B1 metallo-β-lactamases.

[2] = target: NDM-1 (New Delhi metallo-β-lactamase-1) (Klebsiella pneumoniae, UniProt C7C422); experiment: Enzyme inhibition assay, NDM-1
Experimental: as §1

IMP-1 (Imipenemase-1) = IMP-1 (Imipenemase-1) (Serratia marcescens, UniProt P52699); experiment: Enzyme inhibition assay, IMP-1
Experimental: as §1

**Q.** What does the source list for `Cc1cccc2c(-c3cccc(Cl)c3)c(C(=O)O)[nH]c12`?
**A.** pIC50 VIM-2 [1]: 7; pIC50 NDM-1 [2]: 7.6; pIC50 IMP-1 (IMP-1 (Imipenemase-1)): 5.7
